Tested on: P. aeruginosa
Settings: 10,000 ppm thorium, defined medium

**Q.** For thorium nitrate, which effect on growth is on record?
**A.** an extended lag period followed by reduction in growth

From US4780238A (priority 1985, dated 1988)
